The values below come from publication PMC5039624 (Scientific Reports, 2016).

The assay has as its target isolated voltage-sensor domain of the voltage-gated potassium channel KvAP (VSDK), wild type (UniProt Q9YDF8). The assay can be described thus: pull-down.

Substance VSTx1 R24A (peptide) gave a percent decrease in binding against wild-type VSTx1 of 38%.
